Measured values from several laboratories, pooled; numbers as filed in NIAID ChemDB.

Common to all: tests in culture; agent: Candida albicans; measure: MIC

Lines come from different laboratories, so protocols vary. An empty or dashed field is not shown.

| SMILES | cell line | strain or isolate | value |
|---|---|---|---|
| CCN1CCN(Cn2nc(C34CC5CC(CC(C5)C3)C4)oc2=S)CC1 |  | ATCC 753 | 200 µg/mL |
| CCOC(=O)C1C(=O)C=C(c2ccc(F)cc2)CC1c1ccc(C2CC(c3ccc(F)cc3)=CC(=O)C2C(=O)OCC)cc1 |  | Clinical isolate | 6.25 µg/mL |
| CCCCNC(=S)NNC(=O)c1sc(C)nc1C |  | ATCC 14053 | 12.5 µg/mL |
| CC(=O)Oc1c(Cl)cccc1C(=O)Nc1ccc(Cl)cc1 |  | ATCC 44859 | 15.63 µg/mL |
| C[C@H](N)C(=O)N[C@@H](C(=O)O)n1cc(F)c(=O)[nH]c1=O |  | B311 | >100 µg/mL |
| C/C=C/[C@@H]1OC(=O)C=C[C@@H]1O |  |  | 400 µg/mL |
| CCOC(=O)C(=C1SCCCS1)n1ccnc1 |  |  | >100 µg/mL |
| COc1ccc(-n2c(Cn3ncc4ccccc4c3=O)n[nH]c2=S)cc1 |  | ATCC 10231 | 512 µg/mL |
| O=c1[nH]cc(F)c(=O)[nH]1 |  | B311 | 4 µg/mL |
| CN1C(=O)CSc2cc(C(Cn3cncn3)OCc3ccc(Cl)cc3)ccc21 |  | CA6 | >250 µg/mL |
| N[C@@H](C(=O)N[C@H](C(=O)O)C1O[C@@H](n2ccc(=O)[nH]c2=O)[C@H](O)[C@@H]1O)[C@H](O)Cc1ccc(O)cc1 |  |  | >200 µg/mL |
| CC1=C[C@H](OC(=O)c2ccc(O)cc2)C2[C@](C)(CC[C@@]2(O)C(C)C)C/C1=C/CO |  | SC5314 | >50 µg/mL |
| Cc1nc(C)c(C2=NNC(SCc3ccc(C(F)(F)F)cc3)N2C2C3CC4CC(C3)CC2C4)s1 |  | ATCC 14053 | 25 µg/mL |
| CC(C)[C@]1(O)CC[C@]2(C)C[C@@H]3O[C@]3(C)C[C@H](OC(=O)c3ccc(O)cc3)C21 |  | SC5314 | >50 µg/mL |
| CC1(C)OCC(CO/N=C(\Cn2ccnc2)c2ccc(Cl)cc2)O1 |  |  | ≤10 µg/mL |
| CC1=C(CCO)C(=O)C(O)=C2C1=CC(=O)[C@@H]1C(C)(C)CCC[C@@]21C | VERO |  | 0.78 µg/mL |
| CN1C(=O)CSc2cc(C(O)Cn3ccnc3)ccc21 |  | CA6 | >250 µg/mL |
| COc1cc(Nc2nc3ccccc3nc2C(=O)O)cc(OC)c1OC |  |  | 500 µg/mL |
| O=c1c2ccccc2cnn1Cc1nnc(NCc2ccccc2)s1 |  | ATCC 10231 | 128 µg/mL |
| FC(F)(F)c1ccccc1NCSc1nnc(C23CC4CC(CC(C4)C2)C3)o1 |  | ATCC 753 | 200 µg/mL |
| CCC(C)C1NC(=O)C(CC(C)C)OC(=O)C(C(C)C)OC(=O)C(NC(=O)C(C(C)CC)N(C)C(C)=O)C(C)OC(=O)C(CC(C)C)N(C)C(=O)C(C)NC(=O)C(C(C)C)N(C)C(=O)C(C(C)O)NC(=O)C(CC(C)C)N(C)C1=O |  | ATCC 90028 | >50 µg/mL |
| Fc1ccc(NCSc2nnc(C34CC5CC(CC(C5)C3)C4)o2)cc1 |  | ATCC 753 | 400 µg/mL |
| COc1cc(C(=O)O[C@H]2C=C(C)/C(=C\CO)C[C@@]3(C)CC[C@@](O)(C(C)C)C23)ccc1O |  | SC5314 | >50 µg/mL |
| COC(=O)C1OC2(CCCC(OC(C)=O)C(C)C/C=C/c3ccccc3)OC(C(=O)O)(C(OC(=O)CCCCCC/C=C/c3ccccc3)C2O)C1(O)C(=O)O |  | 427 | 12.5 µg/mL |
| COc1cc(C(=O)O[C@H]2CC(C)(C)C=C[C@@]3(C)CC[C@@](C)(C(C)C)C23)ccc1O |  | SC5314 | >50 µg/mL |
| Clc1ccc(NCSc2nnc(C34CC5CC(CC(C5)C3)C4)o2)cc1 |  | ATCC 753 | >400 µg/mL |
| O=c1c2ccccc2cnn1Cc1n[nH]c(=S)n1-c1ccccc1 |  | ATCC 10231 | 512 µg/mL |
| CCOC(=O)C1C(=O)C=C(c2ccccc2)CC1c1ccc(C2CC(c3ccccc3)=CC(=O)C2C(=O)OCC)cc1 |  | Clinical isolate | 12.5 µg/mL |
| Cc1nc(C)c(-c2n[nH]c(=S)n2-c2ccc3ccccc3c2)s1 |  | ATCC 14053 | 12.5 µg/mL |
| CC1=CCC2(C)CCC(O)(C(C)C)C2C(OC(=O)c2ccccc2)C1 |  | SC5314 | >50 µg/mL |
| CCCCn1c(-c2sc(C)nc2C)n[nH]c1=S |  | ATCC 14053 | 12.5 µg/mL |
| CC1(c2ccccc2Cl)OCC(CO/N=C(\Cn2ccnc2)c2ccc(Cl)cc2)O1 |  |  | ≤10 µg/mL |
| O=C(CN1CCCC1)N/N=C\C(=O)c1ccc(Oc2ccccc2)cc1 |  |  | >50 µg/mL |
| Cc1ccc(-n2c(Cn3ncc4ccccc4c3=O)n[nH]c2=S)cc1 |  | ATCC 10231 | 512 µg/mL |
| COCCOCCOCCOCCOCCOCCOCCOCCOCCOCCOCCOCCOCCOCCOCCNC(=O)[C@H]1[C@@H]2C[C@@H](O[C@@H]3O[C@H](C)[C@@H](O)[C@H](N)[C@@H]3O)/C=C/C=C/C=C/C=C/C=C/C=C/C=C/[C@H](C)[C@@H](O)[C@H](C)[C@H](C)OC(=O)C[C@H](O)C[C@H](O)[C@@H](O)CC[C@H](O)C[C@H](O)C[C@](O)(C[C@@H]1O)O2 |  | 3 strains | 6.4 µg/mL |
| C/C=C(\C)C(=O)O[C@@H]1C=C(C)CC[C@]2(O)[C@@H](C(C)C)CC(=O)[C@]12C |  | SC5314 | >50 µg/mL |
| CN1CCN(Cn2nc(C34CC5CC(CC(C5)C3)C4)oc2=S)CC1 |  | ATCC 753 | 200 µg/mL |
| CC(=O)Oc1c(Cl)cccc1C(=O)Nc1ccc(C(F)(F)F)cc1 |  | ATCC 44859 | 7.81 µg/mL |
| N#CC(=C1SCCCS1)n1ccnc1 |  |  | 100 µg/mL |
| O=c1c2ccccc2cnn1CCc1nnc(NCCc2ccccc2)s1 |  | ATCC 10231 | 32 µg/mL |
| CC(C)[C@]1(O)CC[C@]2(C)C[C@@H]3O[C@]3(C)C[C@H](OC(=O)c3ccccc3)C21 |  | SC5314 | >50 µg/mL |
| CC1CC1/C=C/C1CC1C1CC1C1CC1C1CC1/C=C/C=C/C(=O)NC[C@H]1O[C@@H](N2CCC(=O)NC2=O)[C@H](O)[C@@H]1O |  |  | 100 µg/mL |
| CC(C)[C@@H](C)[C@H](O)[C@@H]1CC23CC(=O)[C@]4(O)C(=C2CC[C@@H]3[C@@H]1C)C=C[C@]1(O)C[C@@H](O)CC[C@]41C |  | IFM 40009 | >80 µg/mL |
| O=c1c2ccccc2cnn1Cc1nnc(NCCc2ccccc2)s1 |  | ATCC 10231 | 32 µg/mL |
| CCOC(=O)C1C(=O)C=C(c2ccc(C)cc2)CC1c1ccc(C2CC(c3ccc(C)cc3)=CC(=O)C2C(=O)OCC)cc1 |  | Clinical isolate | 25 µg/mL |
| O=C(C(=C1SCCCS1)n1ccnc1)c1ccc(Cl)cc1 |  |  | >100 µg/mL |
| CC(=O)Oc1cc(Cl)ccc1C(=O)N(C(C)=O)c1ccc(Br)cc1 |  | ATCC 44859 | ≤31.25 µg/mL |
| O=C(CN1CCCCC1)N/N=C\C(=O)c1ccc(Sc2ccccc2)cc1 |  |  | >50 µg/mL |
| O=C1C(=O)c2c(O)ccc(O)c2C(O)=C1Sc1ncc[nH]1 |  |  | >50 µg/mL |
| CC(=O)Oc1cc(Cl)ccc1C(=O)Nc1ccc(Cl)cc1 |  | ATCC 44859 | 31.25 µg/mL |
| CC1(C)OCC(CO/N=C(\Cn2ccnc2)c2ccc(Cl)cc2Cl)O1 |  |  | ≤10 µg/mL |
| O=C(CN1CCCC1)N/N=C\C(=O)c1ccccc1 |  |  | >50 µg/mL |
| CSC1NN=C(c2snnc2C)N1C1C2CC3CC(C2)CC1C3 |  | ATCC 14053 | 25 µg/mL |
| Cc1c(O)cccc1C(=O)N[C@@H](CSc1ccccc1)[C@H](O)CN1C[C@H]2CCCC[C@H]2C[C@H]1C(=O)NC(C)(C)C |  | I46A | 64 µg/mL |
| CN1C(=O)CSc2cc(C(Cn3cncn3)C(O)Cn3ccnc3)ccc21 |  | CA6 | >250 µg/mL |
| CC1(c2ccc(Cl)cc2)OCC(CO/N=C(\Cn2ccnc2)c2ccccc2)O1 |  |  | ≤10 µg/mL |
| CC(C)[C@]1(C)CC[C@]2(C)C=C[C@](C)(O)C[C@H](OC(=O)c3ccccc3)C12 |  | SC5314 | >50 µg/mL |
| Cc1nnsc1-c1n[nH]c(=S)n1C1C2CC3CC(C2)CC1C3 |  | ATCC 14053 | 25 µg/mL |
| Fc1ccc(F)c(NCSc2nnc(C34CC5CC(CC(C5)C3)C4)o2)c1 |  | ATCC 753 | 400 µg/mL |
| CN1C(=O)CSc2cc(C(Cn3cncn3)OCc3ccc(Cl)cc3Cl)ccc21 |  | CA6 | >250 µg/mL |
| CN1CCN(CP(CN2CCN(C)CC2)CN2CCN(C)CC2)CC1 |  | API 20 NE | 640 µg/mL |
| O=c1c2ccccc2cnn1CCc1nnc(Nc2ccc(Cl)cc2)s1 |  | ATCC 10231 | 128 µg/mL |
| O=C(CN1CCCCC1)N/N=C\C(=O)c1ccc(-c2ccccc2)cc1 |  |  | >50 µg/mL |
| COc1ccc(CS(=O)(=O)C2NN=C(c3sc(C)nc3C)N2C2C3CC4CC(C3)CC2C4)cc1 |  | ATCC 14053 | 25 µg/mL |
| CC(=O)Oc1c(Cl)cccc1C(=O)Nc1ccc(Cl)c(Cl)c1 |  | ATCC 44859 | 7.81 µg/mL |
| COc1ccc(Nc2nnc(CCn3ncc4ccccc4c3=O)s2)cc1 |  | ATCC 10231 | 128 µg/mL |

Repeating the first 4 entries:

| SMILES | cell line | strain or isolate | value |
|---|---|---|---|
| CCN1CCN(Cn2nc(C34CC5CC(CC(C5)C3)C4)oc2=S)CC1 |  | ATCC 753 | 200 µg/mL |
| CCOC(=O)C1C(=O)C=C(c2ccc(F)cc2)CC1c1ccc(C2CC(c3ccc(F)cc3)=CC(=O)C2C(=O)OCC)cc1 |  | Clinical isolate | 6.25 µg/mL |
| CCCCNC(=S)NNC(=O)c1sc(C)nc1C |  | ATCC 14053 | 12.5 µg/mL |
| CC(=O)Oc1c(Cl)cccc1C(=O)Nc1ccc(Cl)cc1 |  | ATCC 44859 | 15.63 µg/mL |